PMC9404985, “Development of Dicationic Bisguanidine-Arylfuran Derivatives as Potent Agents against Gram-Negative Bacteria” (Antibiotics, 2022)

Columns and labels:
[1] = system: Acinetobacter baumannii CCUG # 57035; experiment: MIC of established antibiotics, micro-broth dilution; conditions: CCUG #57035 vs #57250 (Table S3)
[2] = system: A. baumannii (CCUG #57250); experiment: Antibacterial activity against isolates (Omnilog, Biolog redox dye); assay type: cell-based, Acinetobacter baumannii; conditions: ratio EC90 CTX / EC90 compound
Protocol: (§1) The antibacterial activities of eight compounds (1, 3, 4, 6, 8, 10, 16, and 17) were tested against 10 different isolates of Gram-negative bacteria from human and other sources, two E. coli (CCUG #67180 and CCUG #17620/ATCC #25922, control strain), two K. pneumoniae (CCUG #58547 and CCUG #225T), two P. aeruginosa (CCUG #17619 and CCUG #59347), two A. baumannii (CCUG #57035 and CCUG #57250), E. cloacae (CCUG #6323T), and E. hormaechei (CCUG #58962) in a 96-well plate format. The compounds to test were 3-fold diluted in six steps in cation-adjusted Mueller-Hinton (ca-MH) broth to final concentrations spanning from 30 to 0.12 µM, i.e., a 1667–416,667 times dilution from the 50 mM stocks. Bacterial mass from the ten isolates grown overnight on horse blood or Mueller–Hinton agar plates was suspended in ca-MH and adjusted to a final inoculum cell density of ~5 × 10^5 CFU/mL. For all assays, Biolog redox dye A diluted 100× from the stock solution was used for measurements of all ten isolates (up to a total volume of 120 µL per well). […] All measurements were performed using the Omnilog microplate reader (Biolog, Hayward, CA, USA) where the 96-well plates were read at 15 min intervals for a total of 24 h at 37 °C.

[3] = system: K. pneumoniae (CCUG #225T); experiment: as above; assay type: cell-based, Klebsiella pneumoniae; conditions: analogous ratio (times more potent than CTX)
Protocol: as §1

[4] = system: E. coli MG1655 (CGSC #6300); experiment: Antibacterial resazurin assay, laboratory strain; conditions: EC90 basis

Row | Structure (SMILES) | difference in sensitivity/resistance between the two A. baumannii isolates [1] | times more potent than CTX, A. baumannii CCUG #57250 [2] | fold more potent than ampicillin, E. coli [4] | other results
1 | C[C@@H](O)[C@H]1C(=O)N2C(C(=O)O)=C(S[C@@H]3CN[C@H](C(=O)N(C)C)C3)[C@H](C)[C@H]12 [Meropenem] | 8 × | – | – | –
2 | N=C(N)Nc1ccc(-c2ccc(-c3ccc(NC(=N)N)cc3)o2)cc1 [Compound 3] | – | 20 times | – | potency ratio relative to CTX, K. pneumoniae CCUG #225T [3]: 0.1
3 | N=C(N)Nc1ccc(-c2ccc(C(=O)N3CCc4cc(NC(=N)N)ccc43)o2)cc1 [Compound 17, (5-(4-guanidinophenyl)furan-2-yl)(5-guanidinoindolin-1-yl)methanone] | – | – | 20 fold | –
4 | N=C(N)Nc1ccc(-c2ccc(-c3ccc(NC(=N)N)cc3Cl)o2)c(Cl)c1 [Compound 1, 2,5-Bis(2-chloro-4-guanidinophenyl)furan] | – | 7 times | – | –
5 | N=C(N)Nc1ccc2c(c1)CCN2C(=O)c1ccc(-c2ccccc2Cl)o1 [Compound 19, (5-(2-chlorophenyl)furan-2-yl)(5-guanidinoindolin-1-yl)methanone] | – | – | 35 fold | –
6 | CO/N=C(\C(=O)N[C@@H]1C(=O)N2C(C(=O)O)=C(COC(C)=O)CS[C@H]12)c1csc(N)n1 [CTX, Cefotaxime, reference compound] | 18 × | – | – | –
